Measured values as given in PubChem BioAssay AID493005 (National Center for Advancing Translational Sciences (NCATS), 2010).
The list shows a part of the results, in another mix than the full data. Activity calls are given as the source filed them. The call rests on the fitted dose curve; in most records, active means well fitted inhibition curve with a large enough effect in the main read-out, with a control signal flat (not every such curve was filed as active); inconclusive means small, poorly fitted or top-dose-only effect, or effect the other way, or a change in a side signal; inactive means no such curve, though single readings can be large or run the other way.

Protein sequences, listed by entry. Tags and fused reporters are not part of them. Lines headed by an entry give the natural chain unless they say otherwise; changes in a name come on top.
UniProt Q99816: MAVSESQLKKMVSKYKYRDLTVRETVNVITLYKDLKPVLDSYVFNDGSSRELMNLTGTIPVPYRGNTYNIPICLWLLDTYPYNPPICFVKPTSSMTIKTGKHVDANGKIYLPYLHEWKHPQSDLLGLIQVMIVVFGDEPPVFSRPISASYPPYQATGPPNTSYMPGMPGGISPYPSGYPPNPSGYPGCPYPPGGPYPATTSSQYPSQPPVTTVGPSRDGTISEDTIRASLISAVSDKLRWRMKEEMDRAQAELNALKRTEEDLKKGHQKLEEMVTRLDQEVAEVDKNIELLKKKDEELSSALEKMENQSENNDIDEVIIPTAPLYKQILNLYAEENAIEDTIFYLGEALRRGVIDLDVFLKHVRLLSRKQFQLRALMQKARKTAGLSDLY

The compounds below were run against Tumor susceptibility gene 101 protein (Homo sapiens) (UniProt Q99816) (assay: qHTS Assay for Iinhibitors of HIV-1 Budding by Blocking the Interaction of PTAP/TSG101). Conditions: Fluorescence polarization, FITC-PTAP peptide / Tsg101 binding; at 115 µM (top of the series).
From the text: NIH Molecular Libraries Probe Production Network [MLPCN] NIH Chemical Genomics Center [NCGC] MLPCN Grant: 1 R03 MH087464-01A1 PI Name: Dr. Eric Freed, NCI NCGC Assay Overview: Stages of the HIV-1 replication cycle, specifically virus assembly and release, provide underexploited targets for the development of novel antiviral inhibitors. The late stages of HIV-1 replication are mediated by the Gag precursor protein, Pr55Gag. Expression of Pr55Gag is both necessary and sufficient for the production of virus-like particles from Gag-expressing cells. The Gag protein hijacks key host proteins involved in endocytic machinery of the host cell to promote endosomal processing and viral budding. The budding process requires a direct interaction between a […] (PTAP) motif in the p6 domain of Gag and the cellular endosomal sorting protein known as Tsg101. In this way, the Gag PTAP motif promotes the host cells to recruit viral particles to the plasma membrane where the new viral particles are released, effectively turning the host cells into viral factories. A fluorescence anisotropy assay has been developed to quantitatively measure the PTAP-Tsg101 interaction which can be used to screen for inhibitors of this interaction.
NCGC Assay Protocol Summary: Two uL of the Tsg101 binding domain in buffer (10 mM HEPES pH 7.5; 0.15 M NaCl, 0.01% Tween 20; 3 mM EDTA;0.1 mM TCEP) was dispensed into Greiner black MB 1536-well plates (final concentration 10 uM). Then, 23 nL of compounds or DMSO were delivered to each well using a pin tool. Finally, 2 uL of a FITC-labeled peptide containing the PTAP motif (1) in the same buffer was dispensed (50 nM final concentration) and the binding was allowed to proceed for 20 min. at r.t. Fluorescent polarization was determined using FITC excitation and polarized emission filters on a Perkin Elmer Viewlux. Keywords: Tsg101, PTAP, Gag, HIV, fluorescent polarization, MLSMR, MLPCN, NIH Roadmap, qHTS, NCGC
Further: % of control where 0% means no effect.

SMILES | activity change, negative = inhibition
Cc1cccc(OCC(=O)OC2CN3CCC2CC3)c1 (stereo not given) | inactive: -0.579%
O=[As](O)(c1cccc(O)c1)c1cccc(O)c1 | inactive: 1.27%
CS(=O)(=O)c1ccc(Cl)c(NC(=O)COC(=O)C(O)(c2ccccc2)c2ccccc2)c1 | inactive: -4.29%
O=[As](O)(O)c1cccnc1 | inactive: -1.06%
COc1cc(C(=O)NCC2(N3CCOCC3)CCCCC2)cc(Cl)c1OC(C)C | inactive: -0.197%
O=C(OC1CN2CCC1CC2)c1ccc(Cl)cc1 (stereo not given) | inactive: -0.2%
CC1(CBr)Cn2c(nc3ccccc3c2=O)S1 (stereo not given) | inactive: -7.52%
CC(C)/C=N\N=C(\N)N[N+](=O)[O-] | inactive: 0.378%
CN(C(=O)Cc1ccc(Cl)c(Cl)c1)[C@@H]1CCCC[C@H]1N1CCCC1 | inactive: -6.53%
COc1ccccc1CNC(=O)COC(=O)C(O)(c1ccccc1)c1ccccc1 | inactive: -2.54%
CC(C)(C)C(=O)NC(Sc1ncccn1)C(Cl)(Cl)Cl (stereo not given) | inactive: 1.54%
Clc1n[nH]nc1-c1nn[nH][15n]1 | inactive: -10.8%
CCOP(=O)(Nc1ccc(C)cn1)OCC | inactive: -0.492%
CN(CCCl)Cc1cc(Cl)c(NC2=NCCN2)c(Cl)c1 | inactive: -6.39%
CCOP(=O)(NC(=NC(C)c1ccccc1)NC(C)c1ccccc1)OCC (stereo not given) | inactive: -6.93%
O=P1(Nc2ccccn2)COc2ccccc2OC1 | inactive: -4.91%
CCC1=CC2Cc3nc4ccc(Cl)cc4c(N)c3C(C1)C2 (stereo not given) | inactive: -3.58%
Cc1ccc(OCC(=O)OC2CN3CCC2CC3)cc1 (stereo not given) | inactive: -4.29%
O=[As](O)(c1cccs1)c1cccs1 | inactive: -0.824%
O=P1(Nc2ccc(Br)cn2)COc2ccccc2OC1 | inactive: -7.94%
NS(=O)(=O)c1cccc(NC(=O)COC(=O)C(O)(c2ccccc2)c2ccccc2)c1 | inactive: -0.576%
Nc1cccc([As](=O)(O)c2ccccc2)c1 | inactive: -4.07%

SMILES | activity change, negative = inhibition
O=P1(Nc2ncccn2)COc2ccccc2OC1 | inactive: 0.106%
CCCC1OP(=O)(Nc2ccccc2)OCC1CC (stereo not given) | inactive: -0.345%
O=C(/C=C/c1ccccc1)OC1CN2CCC1CC2 (stereo not given) | inactive: -0.293%
CN(C)C1(CNC(=O)c2ccc(S(C)(=O)=O)cc2)CCCCC1 | inactive: -2.3%
CC1CCC(C(C)C)C(OP(=O)(Nc2ccccn2)c2ccccc2)C1 (stereo not given) | inactive: -1.92%
Cc1ccc(C(=O)OC2CN3CCC2CC3)cc1 (stereo not given) | inactive: 0.452%
Cc1nn(-c2ccccc2)c2c1P(=O)(N1CCOCC1)N(C)C(c1ccccc1)=N2 (stereo not given) | inactive: -12.1%
O=[N+]([O-])c1ccc(Nc2ccc(Oc3ccc([N+](=O)[O-])cc3[N+](=O)[O-])cc2)c([N+](=O)[O-])c1 | inactive: -9.47%
O=P(Nc1ccccn1)(c1cccc2ccccc12)c1cccc2ccccc12 | inactive: -1.5%
Cc1cc(SC(NC=O)C(Cl)(Cl)Cl)ncn1 (stereo not given) | inactive: -0.391%
CCOC(=O)Nc1cccc([As](=O)(O)O)c1 | inactive: -3.09%
Cc1cc(SC(NC(=O)c2ccccc2)C(Cl)(Cl)Cl)nc(C(C)C)n1 (stereo not given) | inactive: 0.427%
CCCCOc1ccc(C(=O)NCC2(N3CCCCC3)CCCCC2)cc1OC | inactive: -1.24%
CC1CCNP(=O)(N(CCCl)CCCl)O1 (stereo not given) | inactive: 1.48%
CCOC(=O)Nc1ccc([As](=O)(O)O)c(O)c1 | inactive: -0.211%
CCC(C)N(CC(C)C)C(=S)SC(NC(C)=O)C(Cl)(Cl)Cl (stereo not given) | inactive: -6.38%
CCOC(=O)c1ccc(NC(=O)C(C)(CCl)SC)cc1 (stereo not given) | inactive: 0.947%
O=C(OC1CN2CCC1CC2)c1cccc([N+](=O)[O-])c1 (stereo not given) | inactive: 0.455%
O=C(Nc1ccncc1[N+](=O)[O-])c1ccc([N+](=O)[O-])cc1[N+](=O)[O-] | inactive: -2.83%
O=C(COc1ccccc1)OC1CN2CCC1CC2 (stereo not given) | inactive: -2.68%
COP1(=S)c2c(C)nn(CCC#N)c2N=C(c2ccc(F)cc2)N1C (stereo not given) | inactive: -7.85%
COc1ccc(N/C(=N/P(=O)(N2CCOCC2)N2CCOCC2)N2CCOCC2)cc1 | inactive: -0.702%

SMILES | activity change, negative = inhibition
O=[N+]([O-])c1cc(Oc2ccc([N+](=O)[O-])cc2C(F)(F)F)cc([N+](=O)[O-])c1 | inactive: -3.42%
COc1cc(I)ccc1[As](=O)(O)O | inactive: -11.6%
COc1ccc2nc(NP(=O)(c3ccccc3)c3ccccc3)sc2c1 | inactive: -6.28%
O=P1(N(CCCl)CCCl)OCCCN1CCCl (stereo not given) | inactive: 1.62%
O=P1(N(CCCl)CCCl)Nc2ccccc2N1 | inactive: -3.8%
Cc1cc(=O)[nH]c(N[N+](=O)[O-])n1 | inactive: -1.41%
O=C(OC1CN2CCC1CC2)C12CC3CC(CC(C3)C1)C2 (stereo not given) | inactive: 1.3%
Cc1c2c(nc3ccccc13)SC(C(Cl)Cl)C2 (stereo not given) | inactive: 0.826%
O=[N+]([O-])c1cc([N+](=O)[O-])c(-c2ccn[nH]2)s1 | inactive: 98.6%
CC(C)NC(=O)NP(=O)(Oc1ccccc1)Oc1ccccc1 | inactive: -3.03%
CCN(CC)C(=S)SC(NC=O)C(Cl)(Cl)Cl (stereo not given) | inactive: -0.631%
O=C(OC1CN2CCC1CC2)c1cccc2[nH]cnc12 (stereo not given) | inactive: 0.0175%
COC(=O)C1(C)COP(=O)(N2CCCCCC2)OC1 (stereo not given) | inactive: -0.192%
CC(C)c1ccc(OP(=O)(Nc2ccccn2)Oc2ccccc2F)cc1 (stereo not given) | inactive: -4.73%
ClCCSc1nnc(-c2cccnc2)o1 | inactive: -12.3%
Cc1ccc2nc3c(c(C)c2c1)CC(C(Cl)Cl)S3 (stereo not given) | inactive: 0.0718%
Cc1ccc(OP(=O)(Nc2ccc([N+](=O)[O-])cn2)Oc2ccc(C)cc2)cc1 | inactive: -5.55%
O=[N+]([O-])c1ccc(-c2cc([N+](=O)[O-])c(O)c([N+](=O)[O-])c2)cc1 | inactive: -13.2%
COc1cc(C(=O)NCC2(N3CCOCC3)CCCCC2)ccc1OCC(C)C | inactive: -2.44%
O=[As](O)(c1ccc(O)cc1)c1ccccc1O | inactive: -2.23%
C[As](=O)(O)c1cccc(C(=O)O)c1 | inactive: -3.17%
